Here are results for six compounds from paper PMC3511042 (Beilstein Journal of Organic Chemistry, 2012).

Like-named read-outs stand apart in the source and are kept apart here. *1 amine or outer side, *2 acyl side, *3 side chain or, on linkers, in order; H or OH if unused. Where a SMILES comes first, the peptide text is derived from it. Bridges are numbered along the chain shown (N, C = ends). Roman numbers before positions name the chains, in order. [ ]: non-standard residue; d: D form. The star is where a group is joined. ξ: configuration not given here. X3 = CN(C)c1ccc2c(-c3cc(NC(=S)*)ccc3C(=O)[O-])c3ccc(=[N+](C)C)cc-3oc2c1; X1 = CCCCCCCC/C=C\CCCCCCCC(=O)OC[C@](C)(O)C[C@H](N[*:1])C(=O)[*:2]; Trp(2-yl) = O=C([C@H](Cc1c([*:3])[nH]c2ccccc12)N[*:1])[*:2]; ξTrp(2-yl) = O=C(C(Cc1c([*:3])[nH]c2ccccc12)N[*:1])[*:2]; Leu(4R-OH,5-OH) = C[C@](O)(CO)C[C@H](N)C(=O)O; X2 = CC1(CC(N[*:1])C(=O)[*:2])SCC(CN[*:3])S1; X4 = CC(O)(CN[*:3])CC(N[*:1])C(=O)[*:2]; cisHyp = O=C(O)[C@@H]1C[C@H](O)CN1; Hyp = O=C(O)[CH]1C[CH](O)CN1; X5 = O=C(CCS[*:1])[*:2]; ξHyp = O=C(O)C1CC(O)CN1; ξT = CC(O)C(N)C(=O)O; ξC = NC(CS)C(=O)O; ξA = CC(N)C(=O)O

Experiment [1] has as its target α-actin (Oryctolagus cuniculus, UniProt P68135). It is filed as binding, rabbit.
The subject of experiment [2] is Jurkat cells. The note with it: read-out: IC50 values Jurkat cells.
In experiment [3] the test system is K562 cells. The experiment can be described thus: cells. It is filed as cell-based, human. The note with it: read-out: IC50 values K562 cells.
Experiment [4] has as its system Daudi cells. Description: cells. It is filed as cell-based, human. The note with it: read-out: IC50 values Daudi cells.
Experiment [5] deals with Jurkat cells. Description: cells. The note with it: Homo sapiens, 72 h, read-out: IC50 values Jurkat cells.
Experiment [6] concerns HL-60 cells. Description: cells. It is filed as cell-based, human. The note with it: read-out: IC50 values HL-60 cells.
Experiment [7] has as its system cells. Also noted: method as in earlier work. The following applies: flow cytometry ref 13; cited from earlier work.
Setting [8] is: as compared to phalloidin, from concentrations for 50% substitution of [3H]-demethylphalloin.
[9] abbreviates: cell growth inhibition, 72 h incubation, MTT.

In the case of `CC(=O)N[C@@H](CSSCCC(=O)NCC(C)(O)CC1NC(=O)C2Cc3c([nH]c4ccccc34)SCC(NC(=O)C(C(C)O)NC(=O)C(C)NC1=O)C(=O)N1CC(O)CC1C(=O)NC(C)C(=O)N2)C(=O)NCC(=O)N[C@@H](Cc1ccc(O)cc1)C(=O)NCC(=O)N[C@@H](CCCNC(=N)N)C(=O)N[C@@H](CCCCN)C(=O)N[C@@H](CCCCN)C(=O)N[C@@H](CCCNC(=N)N)C(=O)N[C@@H](CCCNC(=N)N)C(=O)N[C@@H](CCC(N)=O)C(=O)N[C@@H](CCCNC(=N)N)C(=O)N[C@@H](CCCNC(=N)N)C(=O)N[C@@H](CCCNC(=N)N)C(=O)O` (some centres unmarked) [2c, (2)-Tat-peptide], the “Relative affinity to α-actin” value in experiment [1] (setting [8]) was found to be 3%.

For `CC(=O)N[C@@H](CSSCCC(=O)NCC(C)(O)CC1NC(=O)C2Cc3c([nH]c4ccccc34)SCC(NC(=O)C(C(C)O)NC(=O)C(C)NC1=O)C(=O)N1CC(O)CC1C(=O)NC(C)C(=O)N2)C(=O)NCC(=O)N[C@@H](CCCNC(=N)N)C(=O)N[C@@H](CCCNC(=N)N)C(=O)N[C@@H](CCCNC(=N)N)C(=O)N[C@@H](CCCNC(=N)N)C(=O)N[C@@H](CCCNC(=N)N)C(=O)N[C@@H](CCCNC(=N)N)C(=O)N[C@@H](CCCNC(=N)N)C(=O)N[C@@H](CCCNC(=N)N)C(=O)O` (some centres unmarked) [2d, (2)-octarginine] (I: Ac-CGRRRRRRRR-OH / II: cyclo([ξTrp(2-yl)][X4][ξA][ξT][ξC][ξHyp][ξA]); linker I:1-II:2 via X5; thioether II:1-II:5), in experiment [1] (setting [8]), the “Relative affinity to α-actin” value amounted to 2%. The IC50 (in general, the concentration needed to halve the response being measured) in experiment [2] (setting [9]) is 7 µM.

In the case of `C[C@@H]1NC(=O)[C@H](C[C@@](C)(O)CO)NC(=O)[C@@H]2Cc3c([nH]c4ccccc34)SC[C@H](NC(=O)[C@@H]([C@H](C)O)NC1=O)C(=O)N1C[C@@H](O)C[C@H]1C(=O)N[C@@H](C)C(=O)N2` [compound 1, phalloidin, reference compound] (cyclo(A[dT]C[cisHyp]A[Trp(2-yl)][Leu(4R-OH,5-OH)]); thioether 3-6), in experiment [1] (setting [8]), the “Relative affinity to α-actin” value is listed as 100%. Further, the IC50 is greater than 1000 µM in experiment [3] (Homo sapiens, K562, 72 h); greater than 1000 µM in experiment [4] (Homo sapiens, Daudi, 72 h); roughly 1000 µM in experiment [5]; greater than 1000 µM in experiment [6] (Homo sapiens, HL-60, 72 h). The “apoptosis (annexin fluorescence distribution)” value in experiment [7] is “indistinguishable from controls”.

In the case of aminophalloidin [compound 2], the “Relative affinity to α-actin” value in experiment [1] (setting [8]) is reported as 2%. Besides, the IC50 in experiment [3] (setting [9]) was greater than 1000 µM; in experiment [4] (setting [9]), greater than 1000 µM; in experiment [2] (setting [9]), roughly 1000 µM; in experiment [6] (setting [9]), greater than 1000 µM.

Consider `CCCCCCCC/C=C\CCCCCCCC(=O)OC[C@](C)(O)C[C@@H]1NC(=O)[C@@H]2Cc3c([nH]c4ccccc34)SC[C@H](NC(=O)[C@@H]([C@H](C)O)NC(=O)[C@H](C)NC1=O)C(=O)N1C[C@@H](O)C[C@H]1C(=O)N[C@@H](C)C(=O)N2` [1e, (1)-oleate] (cyclo(A[dT]C[cisHyp]A[Trp(2-yl)][X1]); thioether 3-6), for which the “Relative affinity to α-actin” value in experiment [1] amounted to 4%. In addition, the IC50 was 2 µM in experiment [3], 4 µM in experiment [4], 2 µM in experiment [2] and 3 µM in experiment [6].

For the compound `CC1NC(=O)C(CC2(C)SCC(CNC(=S)Nc3ccc(C(=O)[O-])c(-c4c5ccc(=[N+](C)C)cc-5oc5cc(N(C)C)ccc45)c3)S2)NC(=O)C2Cc3c([nH]c4ccccc34)SCC(NC(=O)C(C(C)O)NC1=O)C(=O)N1CC(O)CC1C(=O)NC(C)C(=O)N2` (centres unmarked) [compound 3, dithiolanoaminophalloidin TRITC labeled] (cyclo([ξTrp(2-yl)][X2](X3)ATC[Hyp]A); thioether 1-5; configuration not given here), the “Relative affinity to α-actin” value in experiment [1] was found to be 25%.
